Results of unrelated studies side by side (data: NIAID ChemDB).

Shared fields: tests in culture; organism: HIV-1; endpoint: fold resistance

Conditions beyond the fields shown may differ between rows. Blank or dashed fields: not listed here. Fold resistance: result on the changed form divided by that on wild type.

smiles	method	conditions	cells	strain or isolate	mutations	result
Cc1cn([C@H]2C[C@H](N=[N+]=[N-])[C@@H](CO)O2)c(=O)[nH]c1=O	RT activity		PBMC	4755-5 NRTI resistant recombinant	RT-M41L E44D D67N T69D Y118I M184V L210W T215Y	61
Nc1nc(NC2CC2)c2ncn([C@H]3C=C[C@@H](CO)C3)c2n1	p24		MT-2	RT Δ.67 T69G K103N	1 (Δ.67+T69G+K103N)	9.9
Nc1cc(OCCOCP(=O)(O)O)nc(N)n1	syncytia		CEM	Clinical isolate C19	RT-M41L V118I L210W T215Y	6.36
Cc1cn([C@H]2C[C@H](N=[N+]=[N-])[C@@H](CO)O2)c(=O)[nH]c1=O	plaque count		HT4 + HT4-6C	clinical isolate A018C (RT D67N K70R T215Y K219Q)	RT-D67N K70R T215Y K219Q	230
Cc1cn([C@H]2C=C[C@@H](CO)O2)c(=O)[nH]c1=O	β-galactosidase		MAGI (CCR5) + MAGI	HXB2	RT-K103N	0.16
Nc1ccn([C@H]2CC[C@@H](CO)O2)c(=O)n1	p24		MT-4	126 BCH-189 (RT-M184V)	RT-M184V	6.57
COC(=O)N[C@H](C(=O)N[C@@H](Cc1ccccc1)[C@@H](O)CN(Cc1ccc(-c2ccccn2)cc1)NC(=O)[C@@H](NC(=O)OC)C(C)(C)C)C(C)(C)C	RT activity	10 d	CEM + CEM-SS	Indinavir-resistant (PR-L10R M46I L63P V82T I84V)	PR-L10R M46I L63P V82T I84V	3
Cc1cn([C@H]2C[C@H](N=[N+]=[N-])[C@@H](CO)O2)c(=O)[nH]c1=O	p24		MT-2	RT P119S V179D L214F	RT-P119S V179D L214F	1.2
Nc1ccn([C@H]2CC[C@@H](CO)O2)c(=O)n1	cytopathic effect		MT-2	R82150 (RT-L100I)	RT-L100I	0.786
Nc1ncnc2c1ncn2CCOCP(=O)(O)O	p24		MT-2	RT P119S V179D L214F	RT-P119S V179D L214F	1.2
Nc1nc2c(ncn2[C@H]2CC[C@@H](CO)O2)c(=O)[nH]1	syncytia		CEM	IIIB TIBO R82913 STR-2 (RT K103N)	RT-K103N	2
COc1cc(C(F)(F)F)cc(S(=O)(=O)c2cccc(N)c2C#N)c1	β-galactosidase		HeLa + HELA CD4+		RT-V108I Y181C	1000
Nc1nc(=O)n([C@H]2CO[C@@H](CO)S2)cc1F	RT activity		CBMC	HXB2D(RT-M184I)	RT-M184I	1.03
Cc1cc(S(N)(=O)=O)ccc1NC(=O)COc1ccc(Cl)cc1C(=O)c1cc(F)cc(C(F)(F)F)c1	β-galactosidase		HeLa + HeLa-MAGI	HXB2	RT-Y181C	1.5
O=c1[nH]cnc2c1ncn2[C@H]1CC[C@@H](CO)O1	RT activity		CBMC	HxB2D(RT-D67G)	RT-D67G	1.58
Cc1c(N)nc(N)nc1OCCOCP(=O)(O)O	syncytia		CEM	Clinical isolate DE434.4	RT-K65R S68G T69I V75T Q151M	16.1
Nc1ccn([C@H]2CC[C@@H](CO)O2)c(=O)n1	syncytia		CEM	IIIB TIBO R82913 STR-B22 (RT L100I Y188H)	RT-L100I Y188H	0.28
Nc1nc(=O)n([C@@H]2CO[C@H](CO)S2)cc1F	RT activity		CBMC	HXB2D (RT-M184V)	RT-M184V	2.12
Cc1ccnc2c1NC(=O)c1cccnc1N2C1CC1	p24		PBMC	NRTI resistant (RT Y181C K103N) A17 variant	RT-Y181C K103N	2941
COC(=O)N[C@H](C(=O)N[C@@H](Cc1ccccc1)[C@@H](O)CN(Cc1ccc(-c2ccccn2)cc1)NC(=O)[C@@H](NC(=O)OC)C(C)(C)C)C(C)(C)C	p24 / luminescence		MT-4	NL4-3	L10F M46I I54V V82A	21
Cc1cn([C@H]2C=C[C@@H](CO)O2)c(=O)[nH]c1=O	RT activity		PBMC	7324-1 NRTI resistant recombinant	RT-M41L D67N T69N K70R T215F K219E	2.6
Cn1c2ccccc2c2c1cc(C#N)c(=O)n2-c1ccc([N+](=O)[O-])cc1			MT-2	HXB2	TAM1 (M41L D67N L210W T215Y)	2
Nc1ccn([C@@H]2CS[C@H](CO)O2)c(=O)n1	RT activity		PBMC	7324-1 NRTI resistant recombinant	RT-M41L D67N T69N K70R T215F K219E	4.1
O=c1[nH]cnc2c1ncn2[C@H]1CC[C@@H](CO)O1	plaque count		HT4 + HT4 LacZ-1	HXB2	RT-L74V	8
Nc1nc(NC2CC2)c2ncn([C@H]3C=C[C@@H](CO)C3)c2n1	RT activity		PBMC	56252-1 NRTI resistant recombinant	RT-T69K K70G V75I F77L F116Y Q151M M184V	>100
Nc1nc2c(ncn2[C@H]2CO[C@@H](CO)O2)c(=O)[nH]1				DXG 9X(RT-L74V)	RT-L74V	4.2
Fc1cccc(F)c1C1SCc2nc3ccccc3n21	cytopathic effect / MTT		CEM	TIBO R82150-resistant (RT L100I)	RT-L100I	2.24
Cc1cn([C@H]2C=C[C@@H](CO)O2)c(=O)[nH]c1=O	cytopathic effect		MT-2	R82150 (RT-L100I)	RT-L100I	0.818
Cc1cn([C@H]2C[C@H](N=[N+]=[N-])[C@@H](CO)O2)c(=O)[nH]c1=O	ATP		MT-2	IIIB	8374-P62 GS-8374-resistant	0.9
Cc1cc(Cl)cc(S(=O)(=O)c2cccc(N)c2C#N)c1	β-galactosidase		HeLa + HELA CD4+		RT-V106A	0.167
O=c1[nH]cnc2c1ncn2[C@H]1CC[C@@H](CO)O1	p24		MT-2	L74V(RT-L74V)	RT-L74V	2.7
CCN(c1nc(F)ccc1NC(C)(C)C)C1CCN(C(=O)c2cc3cc(NC(=O)N4CCN(C)CC4)ccc3[nH]2)CC1	p24 / ELISA		MT-2	IIIB	K112M K113E V128I M200I H219P I401T R409K D437N L441P R41K	3.4
Cc1cn([C@H]2C[C@H](N=[N+]=[N-])[C@@H](CO)O2)c(=O)[nH]c1=O	syncytia		CEM	IIIB TIBO R82913 STR-B22 (RT L100I Y188H)	RT-L100I Y188H	15
O=C1O[C@H]2[C@@H]3OC(=O)c4cc(O)c(O)c(O)c4-c4c(cc(O)c(O)c4O)C(=O)OC[C@H]2O[C@@H](OC(=O)c2cc(O)c(O)c(O)c2)[C@@H]3OC(=O)c2cc(O)c(O)c3c2[C@@H]2C1=CC(=O)[C@](O)(O3)C2(O)O			MAGI	NNRTI-resistant (RT Y188H) ARP1011	RT-Y188H	1.2
CC(C)=CCN1Cc2cccc3[nH]c(=S)n(c23)C[C@@H]1C	cytopathic effect		MT-2	IIIB	RT-R83K	0.9375
O=C1N(Cc2ccc(CO)cc2)[C@H](COc2ccccc2)[C@H](O)[C@@H](O)[C@@H](COc2ccccc2)N1Cc1ccc(CO)cc1	cytopathic effect / XTT		MT-4	IIIB	PR-I84V	13.6
O=c1[nH]cnc2c1ncn2[C@@H]1O[C@H](CO)C[C@@H]1F	p24		MT-2	RT P119S V179D L214F	RT-P119S V179D L214F	2.6
CC(C)CN(C[C@@H](O)[C@H](Cc1ccccc1)NC(=O)O[C@H]1CCOC1)S(=O)(=O)c1ccc(N)cc1	p24 / ELISA		MT-2	IIIB	D437N L441P	0.8
CC(C)CN(C[C@@H](O)[C@H](Cc1ccccc1)NC(=O)[C@H](CC(N)=O)NC(=O)c1ccc2ccccc2n1)C(=O)NC(C)(C)C	p24		MT-4	NL4-3	PR-L10R L63P V82T I84V	4
Fc1cccc(F)c1C1OCc2nc3ccccc3n21	cytopathic effect / MTT		CEM	TIBO R82150-resistant (RT K103N)	RT-K103N	≥3.64
Cc1cc(O)cc(S(=O)(=O)c2cccc(N)c2C#N)c1	β-galactosidase		HeLa + HELA CD4+		RT-V108I Y181C	571
CCOCn1c(Cc2cc(C)cc(C)c2)c(CC)c(=O)[nH]c1=O	syncytia		CEM	IIIB nevirapine-resistant (RT Y181C)	RT-Y181C	200
S=C(NCCc1ccccn1)Nc1ccc(Br)cn1	p24		PBMC	NRTI resistant (RT Y181C K103N) A17 variant	RT-Y181C K103N	14285
C#C[C@@]1(CO)C=C[C@H](n2cc(C)c(=O)[nH]c2=O)O1	β-galactosidase		MAGI (CCR5) + MAGI	HXB2	RT-Y181C	1
C[C@H](COc1cc(N)nc(N)n1)OCP(=O)(O)O	syncytia		CEM	Clinical isolate L6.5	RT-S68G K70T V75I F77L K103N F116Y Q151M K219R	10.8
O=c1[nH]cnc2c1ncn2[C@H]1CC[C@@H](CO)O1	cytopathic effect		MT-2	R82150 (RT-L100I)	RT-L100I	0.806
CCn1c(=O)c(C)cn([C@@H]2O[C@H](CO[Si](C)(C)C(C)(C)C)C3(OS(=O)(=O)C=C3N)[C@H]2O[Si](C)(C)C(C)(C)C)c1=O	syncytia		CEM	IIIB TIBO R82913 STR-B02 (RT L100I E138K)	RT-L100I E138K	>1670
Cc1cc(S(N)(=O)=O)ccc1NC(=O)COc1ccc(Cl)cc1C(=O)c1cccc(C#N)c1	cytopathic effect / MTS		MT-4	Nevirapine-resistant	RT-Y181C	2
CC(C)(C)NC(=O)[C@@H]1C[C@@H]2CCCC[C@@H]2CN1C[C@@H](O)[C@H](Cc1ccccc1)NC(=O)[C@H](CC(N)=O)NC(=O)c1ccc2ccccc2n1	p24		MT-4	NL4-3	PR-M46I L63P V82T	1
O=c1[nH]cnc2c1ncn2[C@H]1CC[C@@H](CO)O1	p24		MT-2		RT-delta67 T69G	0.9
Cc1cc(Br)cc(S(=O)(=O)c2cccc(N)c2C#N)c1	β-galactosidase		HeLa + HELA CD4+		RT-K103N V108I	436
Nc1ccn([C@H]2CC[C@@H](CO)O2)c(=O)n1	p24		MT-4	HXB2-D65(RT-K65R)	RT-K65R	12.4
Nc1nc(=O)n([C@@H]2CS[C@H](CO)O2)cc1F					RT-S68G Q151M T215Y	~1

5 of the rows above, restated:

smiles,method,conditions,cells,strain or isolate,mutations,result
O=c1[nH]cnc2c1ncn2[C@H]1CC[C@@H](CO)O1,plaque count,,HT4 + HT4 LacZ-1,HXB2,RT-L74V,8
Cc1cn([C@H]2C[C@H](N=[N+]=[N-])[C@@H](CO)O2)c(=O)[nH]c1=O,ATP,,MT-2,IIIB,8374-P62 GS-8374-resistant,0.9
Cc1cn([C@H]2C[C@H](N=[N+]=[N-])[C@@H](CO)O2)c(=O)[nH]c1=O,syncytia,,CEM,IIIB TIBO R82913 STR-B22 (RT L100I Y188H),RT-L100I Y188H,15
C[C@H](COc1cc(N)nc(N)n1)OCP(=O)(O)O,syncytia,,CEM,Clinical isolate L6.5,RT-S68G K70T V75I F77L K103N F116Y Q151M K219R,10.8
Nc1ccn([C@@H]2CS[C@H](CO)O2)c(=O)n1,RT activity,,PBMC,7324-1 NRTI resistant recombinant,RT-M41L D67N T69N K70R T215F K219E,4.1